Measured values from several laboratories, pooled; numbers as filed in NIAID ChemDB.

Common to all: toxicity to cultured cells; cell line: MT-4; read-out: CC50

An empty or dashed field is not shown. CCn is the concentration with n% toxicity to the cells. Conditions beyond the fields shown may differ between rows.

smiles,read by,value
COc1nc(Cc2cccc(C)c2)cc(=O)[nH]1,-,>434 µM
CCOCn1c(SCC(N)=O)nc(CC)c1Cc1cc(C)cc(C)c1,MTT,>100 µM
C=CC(C)(C)c1cc([C@@H]2COc3c(ccc4c3C=CC(C)(C)O4)C2)c(O)cc1O,-,9 µg/mL
O=[N+]([O-])c1cc(Cl)c(Cl)cc1[N+](=O)[O-],-,>100 µM
CC(C)c1c(Sc2cccc3ccccc23)n(COCC2CCCCC2)c(=O)[nH]c1=O,MTT,172 µM
Cc1cn([C@H]2C[C@H](N=[N+]=[N-])[C@@H](CO)O2)c(=O)[nH]c1=O,-,12 µg/mL
O=C1Cc2ccccc2C(=O)N1O,MTT,27.05 µM
CCOCn1c(Sc2cccc3ccccc23)c(CC(C)C)c(=O)[nH]c1=O,MTT,36.12 µM
Nc1ncnc2c1ncn2CCOCP(=O)(O)O,tetrazolium,246 µM
Oc1cc(O)cc(-c2cc3ccc(O)cc3o2)c1,-,54 µg/mL
CCn1c(Cc2ccccc2)c(C(C)C)[nH]c1=S,MTT,40.72 µM
Cc1cn([C@H]2C[C@@H](OCP(=O)(O)O)CO2)c(=O)[nH]c1=O,tetrazolium,>343 µM
CCc1c(Sc2cc(C)cc(C)c2)n(COCCOP(=O)(O)OC[C@H]2O[C@@H](n3cc(C)c(=O)[nH]c3=O)C[C@@H]2N=[N+]=[N-])c(=O)[nH]c1=O,-,15.5 µM
COc1ccc(CSc2nc(Cc3ccc(F)cc3)c(C)c(=O)[nH]2)cc1,MTT,8.9 µM
CCOCn1c(SCC(N)=O)nc(CC)c1CC1CCCCC1,MTT,>100 µM
Cc1cc(C)cc(Cc2[nH]c(=O)[nH]c(=O)c2C)c1,-,>410 µM
Cc1cn([C@H]2CO[C@H](CP(=O)(O)O)O2)c(=O)[nH]c1=O,-,>332 µM
O=c1[nH]cnc2c1ncn2[C@H]1CC[C@@H](CO)O1,-,226 µM
Nc1nc2c(ncn2[C@H]2CO[C@H](CP(=O)(O)O)O2)c(=O)[nH]1,-,>332 µM
Cc1c(Cc2c(Cl)cccc2Cl)nc(SCc2ccc(O)cc2)[nH]c1=O,MTT,41 µM
NCC(=O)Nc1ccc(Cl)cc1C(=O)c1ccc[nH]1,-,>1.7 µg/mL
CC(C)c1nc(SCC(N)=O)n(Cc2ccncc2)c1Cc1ccccc1,MTT,>100 µM
C[C@H](Cn1cnc2c(N)ncnc21)OCP(=O)(O)O,tetrazolium,>350 µM
Cc1cc(C)cc(Cc2[nH]c(=S)[nH]c2C(C)C)c1,MTT,38.61 µM
CC(C)(C)OC(=O)N[C@@H](Cc1ccccc1)C[C@H](O)[C@H](Cc1ccccc1)NC(=O)c1cc(N)ccc1Cl,-,>100 µM
Cc1cn([C@H]2C[C@H](N=[N+]=[N-])[C@@H](CO)O2)c(=O)[nH]c1=O,-,100 µM
O=c1cnn([C@@H]2O[C@H](CO)[C@@H](O)[C@H]2O)c(=O)[nH]1,-,0.2 µM
S=c1[nH]c2cc(Cl)c(Cl)cc2[nH]1,-,>100 µM
Cc1c(Cc2c(Cl)cccc2Cl)nc(S(=O)(=O)Cc2ccc(Br)cc2)[nH]c1=O,MTT,>50 µM
COCn1c(Sc2cccc3ccccc23)c(C(C)C)c(=O)[nH]c1=O,MTT,38.4 µM
Cc1cn([C@H]2C[C@H](F)[C@@H](CO)O2)c(=O)[nH]c1=O,-,>0.001 µM
Nc1nc2c(ncn2[C@H]2CO[C@@H](CP(=O)(O)O)O2)c(=O)[nH]1,-,>332 µM
COc1ccc2c(Cc3c[nH]c4ccccc34)c(OC(C)=O)ccc2c1,-,18 µM
CC1(C)C=Cc2c(ccc(-c3coc4cc(O)cc(O)c4c3=O)c2O)O1,-,7 µg/mL
Cc1cc(C)cc(Cc2cc(=O)[nH]c(OCC(C)C)n2)c1,-,104 µM
COc1c(CC=C(C)C)cc(C2CC(=O)c3c(O)cc(O)cc3O2)c(CC=C(C)C)c1O,-,11 µg/mL
CCOCn1c(Sc2cccc3ccccc23)c(C(C)C)c(=O)[nH]c1=O,MTT,33.2 µM
Nc1ccn([C@H]2C[C@@H](OCP(=O)(O)O)CO2)c(=O)n1,tetrazolium,>321 µM
CCOCn1c(SCC(N)=O)nc(C(C)C)c1CC1CCCCC1,MTT,>100 µM
Cc1cccc(Cc2nc(OC3CCCC3)[nH]c(=O)c2C)c1,-,335 µM
Cc1cc(C)cc(Cc2c(C(C)C)nc(SCC(N)=O)n2Cc2ccncc2)c1,MTT,64.04 µM
CC(=O)Oc1ccc2ccccc2c1Cc1c(C)[nH]c2ccccc12,-,50 µM
C=C(C)[C@@]12OC3(/C=C/C=C/CCCCCCCCCC)OC1C1[C@@H]4O[C@]4(CO)[C@@H](O)[C@]4(O)C(=O)C(C)=CC4C1(O3)[C@H](C)[C@H]2O,-,16.3 µM
Cc1cc(C)cc(Cc2nc(OC3CCCC3)[nH]c(=O)c2C)c1,-,>320 µM
O=c1ccn([C@H]2C[C@@H](OCP(=O)(O)O)CO2)c(=O)[nH]1,tetrazolium,>336 µM
Cc1cccc(Cc2nc(OC(C)C)[nH]c(=O)c2C)c1,-,>367 µM
C1CNCCNCC(C2CNCCNCCCNCCNC2)CNCCNC1,-,54 µg/mL
Cc1cccc(Cc2cc(=O)[nH]c(OC3CCCC3)n2)c1,-,352 µM
C=C(C)[C@H]1[C@@H]2OC3(/C=C/C=C/CCCCC)O[C@@H]2[C@@H]2[C@@H]4O[C@]4(CO)[C@@H](O)[C@]4(O)C(=O)C(C)=C[C@H]4[C@@]2(O3)[C@@H]1C,luminescence,0.03 µM
CC(=O)Oc1ccc2cc(Br)ccc2c1Cc1c[nH]c2ccc(Br)cc12,-,19 µM
CCOCn1c(Sc2cccc3ccccc23)c(C)c(=O)[nH]c1=O,MTT,39.6 µM
COc1ccc2ccc(OC(C)=O)c(Cc3c[nH]c4ccccc34)c2c1,-,55 µM
CCc1c(Sc2cccc3ccccc23)n(COCc2cccc(F)c2)c(=O)[nH]c1=O,MTT,31.47 µM
CCc1c(Sc2cc(C)cc(C)c2)n(COCCO)c(=O)[nH]c1=O,-,155 µM
C=C(C)[C@H]1[C@@H]2OC3(CCCCCCCCC)O[C@@H]2[C@@H]2[C@@H]4O[C@]4(CO)[C@@H](O)[C@]4(O)C(=O)C(C)=C[C@H]4[C@@]2(O3)[C@@H]1C,luminescence,>0.03 µM
Oc1ccc2cc(Br)ccc2c1CN1CCN(Cc2c(O)ccc3cc(Br)ccc23)CC1,-,>100 µM
Cc1c(Cc2c(Cl)cccc2Cl)nc(SCc2ccc(C#N)cc2)[nH]c1=O,MTT,>60 µM
O=C(N[C@@H](Cc1ccccc1)[C@@H](O)C[C@H](Cc1ccccc1)NC(=O)c1ccccc1)OCc1ccccc1,-,>100 µM
CC(=O)Oc1ccc2cc(Br)ccc2c1Cc1c(C)[nH]c2ccccc12,-,16 µM
CCc1c(Sc2cccc3ccccc23)n(COCc2ccccc2)c(=O)[nH]c1=O,MTT,34.28 µM
CCOCn1c(SCC(N)=O)nc(C(C)C)c1Cc1ccccc1,MTT,>100 µM
COc1nc(Cc2cccc(C)c2)c(C)c(=O)[nH]1,-,>381 µM